Drawing on PubChem BioAssay AID2391 (Southern Research Specialized Biocontainment Screening …, 2010), this text covers CPE inhibition for 56 compounds.

The list shows a part of the results. Entries with a potency or affinity are not part of this list. Some salts or complexes appear as unconnected parts, following the source record. Calls of active or inactive are those of the source. How the calls were made is not given here.

A short description of the experiment: inhibition of RSV-induced cytopathic effect – HEp-2 cells, primary 10 µM value included (AID 2391). Particulars: at 10 µM, hits give high values. On the technique in general: Protection from cytopathic effect is a common read-out in antiviral testing.
On to `CCN(CC)CCCOC(=O)C(O)(c1ccccc1)c1ccccc1`, for which the CPE inhibition was inactive: 0.64%.
As to `O=[N+]([O-])c1cc([N+](=O)[O-])c(Nc2cccnc2)c([N+](=O)[O-])c1`, the CPE inhibition was inactive: 9.11%.
Take `O=[N+]([O-])c1ccc2c(c1)C=Nc1ccccc1O2`: the CPE inhibition is inactive: 3.2%.
For `CC(C)(C)c1ccc(OP(C)(=O)Nc2ccc(SC(F)(F)F)cc2)cc1` (stereo unspecified), the CPE inhibition was inactive: 0.5%.
In the case of `Cc1cccc(C)c1OP(C)(N)=O` (stereo unspecified) it was inactive: 0.46%; in that of `COc1ccccc1OP(C)(=O)Nc1ccc(C)cc1` (stereo unspecified), inactive: 0.87%; in that of `Cc1ccc(NP(C)(=O)Oc2ccccc2)c(C)c1` (stereo unspecified), inactive: 0.48%.
In the case of `CCOC(=O)c1ccc(NP(C)(=O)Oc2ccccc2)cc1` (stereo unspecified), the CPE inhibition is inactive: 1.63%.
The result for `Cc1cc(C)cc(OP(C)(N)=O)c1` (stereo unspecified) reads inactive: 0.72%.
In the case of `COc1ccccc1OP(C)(=O)Nc1cc(Cl)ccc1C` (stereo unspecified) it was inactive: 4.95%.
In the case of `COc1ccc(OP(C)(=O)Nc2cccc(F)c2)cc1` (stereo unspecified) it was inactive: 0.17%; in that of `CP(=S)(Nn1cnnc1)Oc1ccccc1` (stereo unspecified), inactive: 1.84%.
Consider `CP(=O)(Nc1ccccc1Br)Oc1ccccc1` (stereo unspecified), for which the CPE inhibition was inactive: 1.6%.
In the case of `COc1ccccc1OP(C)(=O)Nc1ccccc1` (stereo unspecified) it was inactive: -0.92%.
For `Cc1cccc(C)c1OP(C)(=O)Nc1ccc(SC(F)(F)F)cc1` (stereo unspecified), the CPE inhibition was inactive: 2.94%.
In the case of `CP(=O)(Oc1ccccc1)OC(c1ccccc1)C(F)(F)F` (stereo unspecified) it was inactive: 0.48%; in that of `CP(=O)(NC(=O)Nc1ccccc1)Oc1ccccc1` (stereo unspecified), inactive: -0.82%.
For the compound `CCc1ccc(OP(C)(=O)N2CCN(c3ccc([N+](=O)[O-])cc3)CC2)cc1` (stereo unspecified), the CPE inhibition is inactive: 6.11%.
In the case of `Cc1cc(C)cc(OP(C)(=O)Nc2ccc(SC(F)(F)F)cc2)c1` (stereo unspecified), the CPE inhibition is inactive: 1.89%.
Regarding `CCOC(=O)c1ccc(NP(C)(=O)Oc2ccc(OC)cc2)cc1` (stereo unspecified), the CPE inhibition is inactive: 2.81%.
As for `CCOP(C)(=S)SCC(=O)NC(C)C(=O)O` (stereo unspecified), the CPE inhibition was inactive: 0.89%.
With `CP(=O)(Nc1ccccn1)Oc1ccc(Cl)cc1` (stereo unspecified), the CPE inhibition is inactive: -0.21%.
As for `O=[N+]([O-])c1cc([N+](=O)[O-])c(-n2nnc3ccccc32)c([N+](=O)[O-])c1`, the CPE inhibition is inactive: 2.21%.
For the compound `O=[N+]([O-])c1cc([N+](=O)[O-])c(-c2cnn(-c3ccccc3)c2)c([N+](=O)[O-])c1`, the CPE inhibition was inactive: 14.1%.
In the case of `Cc1nc2ccc3ccccc3c2s1.O=[N+]([O-])c1cc([N+](=O)[O-])c(O)c([N+](=O)[O-])c1` it was inactive: 7.29%; in that of `CC1=C2N=C(C=C3N=C(C(C)=C4[N-][C@@](C)([C@@H]5N=C1[C@](C)(CCC(=O)NC[C@@H](C)OP(=O)([O-])O[C@H]1[C@@H](O)[C@@H](n6cnc7cc(C)c(C)cc76)O[C@@H]1CO)[C@H]5CC(N)=O)[C@@](C)(CC(N)=O)[C@@H]4CCC(N)=O)[C@@](C)(CC(N)=O)[C@@H]3CCC(N)=O)C(C)(C)[C@@H]2CCC(N)=O.[C-]#N.[Co+3]`, inactive: -0.04%; in that of `O=[N+]([O-])c1cc([N+](=O)[O-])c(Nc2nnnn2CCO)c([N+](=O)[O-])c1`, inactive: 2.15%.
`CCOC(=O)C(CC)C1=NC(C)(C)Cc2ccccc21.O=[N+]([O-])c1cc([N+](=O)[O-])c(O)c([N+](=O)[O-])c1` (stereo unspecified): the CPE inhibition was inactive: -0.82%.
`COc1ccccc1OP(C)(=O)Nc1c(C)cccc1C` (stereo unspecified): the CPE inhibition was inactive: 0.72%.
For the compound `CN1CCCCC1COC(=O)C1(O)c2ccccc2CCc2ccccc21` (stereo unspecified), the CPE inhibition was inactive: 0.78%.
As for `CCCOc1ccc(NP(C)(=O)Oc2ccc(Cl)cc2)cc1` (stereo unspecified), the CPE inhibition is inactive: -0.58%.
The result for `CP(=O)(Nc1ccc(SC(F)(F)F)cc1)Oc1ccccc1` (stereo unspecified) reads inactive: 7.19%; that for `O=C(O)c1cccc(Nc2c([N+](=O)[O-])cc([N+](=O)[O-])cc2[N+](=O)[O-])c1`, inactive: 0.24%.
In the case of `CC1=NCCc2c1[nH]c1ccccc21.O=[N+]([O-])c1cc([N+](=O)[O-])c(O)c([N+](=O)[O-])c1` it was inactive: 6.09%.
The result for `COc1ccccc1OP(C)(=O)Nc1cccc(Br)c1` (stereo unspecified) reads inactive: -1.83%; that for `CCOC(=O)c1ccc(NP(C)(=O)Oc2cc(C)cc(C)c2)cc1` (stereo unspecified), inactive: 2.37%.
For the compound `Cc1cc(C)cc(OP(C)(=O)Nc2ccc(C)cc2C)c1` (stereo unspecified), the CPE inhibition is inactive: 1.39%.
The result for `Cc1ccc(C)c(NP(C)(=O)Oc2ccccc2)c1` (stereo unspecified) reads inactive: 1.86%; that for `Cc1cc(C)cc(OP(C)(=O)Nc2ccccn2)c1` (stereo unspecified), inactive: -1.47%.
Regarding `CP(=O)(Nc1cccc(Br)c1)Oc1ccccc1` (stereo unspecified), the CPE inhibition was inactive: 4.03%.
The result for `CP(=O)(Nc1ccccc1F)Oc1ccccc1` (stereo unspecified) reads inactive: 0.62%; that for `CC(C)c1ccc(OP(C)(=O)Nc2ccc(SC(F)(F)F)cc2)cc1` (stereo unspecified), inactive: 2.5%.
The result for `O=C(OC1CN2CCC1CC2)c1ccc([N+](=O)[O-])cc1` (stereo unspecified) reads inactive: 3%.
In the case of `O=C(OCCN1CCN(CCOCc2ccccc2)CC1)C(O)(c1ccccc1)c1ccccc1` it was inactive: 0.73%; in that of `COc1ccc2c(c1O)-c1c(O)c(OC)cc3c1[C@H](C2)[N+](C)(C)CC3.O=[N+]([O-])c1cc([N+](=O)[O-])c([O-])c([N+](=O)[O-])c1[O-]`, inactive: 2.1%; in that of `CCOC(=O)c1ccc(NP(C)(=O)Oc2ccc(F)cc2)cc1` (stereo unspecified), inactive: 2.73%.
`COc1ccc(OP(C)(=O)Nc2ccc(SC(F)(F)F)cc2)cc1` (stereo unspecified): the CPE inhibition was inactive: 2.96%.
In the case of `CCN(CC)CCCOC(=O)C(O)(c1ccccc1)C1CCCCC1` (stereo unspecified) it was inactive: -0.65%.
As to `CP(=O)(Nc1ccccc1)Oc1ccc(F)cc1` (stereo unspecified), the CPE inhibition is inactive: -0.71%.
In the case of `CCCCCOc1ccc(NP(C)(=O)Oc2ccc(Cl)cc2Cl)cc1` (stereo unspecified) it was inactive: -0.27%; in that of `O=[N+]([O-])c1cc([N+](=O)[O-])c(OC2CCCCC2O)c([N+](=O)[O-])c1` (stereo unspecified), inactive: 0.82%.
In the case of `COc1ccc(OP(C)(=O)Nc2cccc(Br)c2)cc1` (stereo unspecified), the CPE inhibition is inactive: 1.34%.
The result for `CN(C)CCOC(=O)C(O)(c1ccccc1)C1CCCCC1` (stereo unspecified) reads inactive: -1.26%; that for `COc1ccc(NP(C)(=O)Oc2ccccc2OC)cc1` (stereo unspecified), inactive: 0.63%; that for `O=[N+]([O-])c1ccc(OP2(=O)COCCO2)cc1` (stereo unspecified), inactive: 0.95%.
On to `O=[N+]([O-])c1cc([N+](=O)[O-])c(NCC2CCS(=O)(=O)C2)c([N+](=O)[O-])c1` (stereo unspecified), for which the CPE inhibition was inactive: 5.09%.
